Results of unrelated studies side by side (data: NIAID ChemDB).

Neighbouring rows are from separate reports. ICn is the concentration giving n% inhibition. ECn: concentration that inhibits the pathogen or its effect by n%. Percent inhibition refers to the dose given; in toxicity tests it is the harm to the cells. An empty or dashed field is not shown. A number after MIC or MFC names an inhibition level or a share of isolates.

Fc1ccc(N2CCCCC2)c(NC(=S)c2ccncc2)c1 ; measure: inhibition ; target: Abl ; dose: 10 µM ; test: host protein ; method: kinase activity ; value: -2%
OCc1ccc(-c2cncc(N3CCN(c4ccncc4)CC3)n2)cc1 ; measure: inhibition ; target: UL97 kinase ; organism: Cytomegalovirus ; dose: 1 µM ; test: target ; value: <50%
CCOC(=O)c1ccc(OCCC2CCN(c3ccc(C)nn3)CC2)cc1 ; measure: EC50 ; strain: Baylor 1 (ICAM-1 receptor group 45) ; organism: Rhinovirus ; cell line: KB ; test: culture ; method: neutral red ; value: 0.271 µM
O=S(=O)(O)c1cccc2c(O)cccc12 ; measure: inhibition ; strain: TYPE 3 ; organism: Adenovirus ; cell line: Human embryonic lung cells ; dose: 5 µg/mL ; test: culture ; method: cytopathic effect ; value: 0%
Cc1cc(CCCOc2c(C)cc(-c3noc(C(F)(F)F)n3)cc2C)on1 ; measure: EC50 ; strain: Isolate 36 ; organism: Rhinovirus ; cell line: OHIO HELA-I ; test: culture ; method: cytopathic effect / visual reading ; value: 0.14 µg/mL
Cc1ccccc1-c1cncc(N2CCN(c3ccccc3F)CC2)n1 ; measure: IC50 ; target: UL97 kinase ; organism: Cytomegalovirus ; test: target ; value: <100 µM
O=C(Nc1ccc(S(=O)(=O)[O-])c2cccc(S(=O)(=O)[O-])c12)c1ccccc1 ; measure: inhibition ; organism: Rhinovirus ; cell line: Human amnion AV3 cells ; dose: 5 µg/mL ; test: culture ; method: cytopathic effect ; value: 0%
COc1cccc(N2CCN(c3cncc(-c4ccccc4)n3)CC2)c1 ; measure: inhibition ; target: UL97 kinase ; organism: Cytomegalovirus ; dose: 10 µM ; test: target ; value: >15%
C=CCc1ccc(OC)c(OC)c1 ; measure: MIC90 ; strain: 3191 ; organism: Candida tropicalis ; test: culture ; method: turbidity ; value: 345 µg/mL
O=S(=O)([O-])c1ccc(O)cc1 ; measure: inhibition ; organism: Herpes simplex virus ; cell line: Human amnion AV3 cells ; dose: 5 µg/mL ; test: culture ; method: cytopathic effect ; value: 0%
CCC(CC)O[C@@H]1C=C(C(=O)O)C[C@H](N)[C@H]1NC(C)=O ; measure: EC50 ; strain: Influenza A/Virginia/2/88R (H3N2) ; organism: Influenza A virus ; cell line: MDCK ; test: culture ; value: <0.01 µM
O=S(=O)([O-])c1ccccc1S(=O)(=O)[O-] ; measure: inhibition ; organism: Rhinovirus ; cell line: Human embryonic lung cells ; dose: 5 µg/mL ; test: culture ; method: cytopathic effect ; value: 0%
Cc1ccc(N2CCN(c3cncc(-c4ccc(CO)cc4)n3)CC2)c(C)c1 ; measure: IC50 ; target: UL97 kinase ; organism: Cytomegalovirus ; test: target ; value: <100 µM
Nc1c(S(=O)(=O)[O-])cc2cc(S(=O)(=O)[O-])ccc2c1O ; measure: inhibition ; strain: TYPE 3 ; organism: Adenovirus ; cell line: Human amnion AV3 cells ; dose: 5 µg/mL ; test: culture ; method: cytopathic effect ; value: 0%
CC(=O)c1ccc(-c2cncc(N3CCN(c4ccncc4)CC3)n2)s1 ; measure: IC50 ; target: UL97 kinase ; organism: Cytomegalovirus ; test: target ; value: <1 µM

For reference, 2 entries again:

smiles | measure | target | strain | organism | cell line | dose | test | method | value
Cc1ccccc1-c1cncc(N2CCN(c3ccccc3F)CC2)n1 | IC50 | UL97 kinase |  | Cytomegalovirus |  |  | target |  | <100 µM
O=S(=O)([O-])c1ccc(O)cc1 | inhibition |  |  | Herpes simplex virus | Human amnion AV3 cells | 5 µg/mL | culture | cytopathic effect | 0%